Results of unrelated studies side by side (data: NIAID ChemDB).

Common to all: whole-cell or culture tests; organism: Haemophilus influenzae

Rows are shuffled and stem from different studies. MIC50, MIC90 and the like: level of inhibition, or share of isolates inhibited.

smiles,measure,strain,result
CC(=O)NC[C@H]1CN(c2ccc(-c3cccs3)c(F)c2)C(=O)O1,MIC,UC 30063,8 µg/mL
CC[C@H]1OC(=O)C[C@@H](O)[C@H](C)[C@@H](O[C@@H]2O[C@H](C)[C@@H](O)[C@H](N(C)C)[C@H]2O)C(C=O)C[C@@H](C)C(=O)/C=C/C(C)=C/[C@@H]1COC(=O)Nc1ccc([N+](=O)[O-])cc1,MIC,33929 (ampicillin-resistant),2 µg/mL
CO/N=C1\CN(c2nc3c(cc2F)c(=O)c(C(=O)O)cn3C2CC2)CC1CN,MIC90,24 strains,0.016 µg/mL
CO/N=C(/C(=O)N[C@@H]1C(=O)N2C(C(=O)O)=C(COC(N)=O)CS[C@H]12)c1ccco1,MIC50,434 strains,0.5 µg/mL
C[C@@H]1O[C@@H]1P(=O)(O)O,MIC,ATCC31517,8 µg/mL
CC(=O)NC[C@H]1CN(c2ccc(-c3cc(C#N)cs3)c(F)c2)C(=O)O1,MIC,UC 30063,>64 µg/mL
CC[C@H]1OC(=O)C[C@@H](O)[C@H](C)[C@@H](O[C@@H]2O[C@H](C)[C@@H](O)[C@H](N(C)C)[C@H]2O)C(C=O)C[C@@H](C)C(=O)/C=C/C(C)=C/[C@@H]1COC(=O)NCc1ccccc1,MIC,33929 (ampicillin-resistant),1 µg/mL
COc1c(N2C[C@@H]3CCCN[C@@H]3C2)c(F)cc2c(=O)c(C(=O)O)cn(C3CC3)c12,MIC90,233 isolates,0.04 µg/mL
CC(=O)NC[C@H]1CN(c2ccc(-c3nsc(C(N)=O)n3)c(F)c2)C(=O)O1,MIC,UC 30063,>16 µg/mL
COc1c(N2CCNC(C)C2)c(F)cc2c(=O)c(C(=O)O)cn(C3CC3)c12,MIC90,66 strains,0.06 µg/mL
CC(=O)NC[C@H]1CN(c2ccc(-c3ccn(C(C)=O)n3)c(F)c2)C(=O)O1,MIC,UC 30063,64 µg/mL
CC[C@H]1OC(=O)C[C@@H](O)[C@H](C)[C@@H](O[C@@H]2O[C@H](C)[C@@H](O)[C@H](N(C)C)[C@H]2O)C(C=O)C[C@@H](C)C(=O)/C=C/C(C)=C/[C@@H]1COC(=O)Nc1ccc(F)cc1,MIC,33929 (ampicillin-resistant),1 µg/mL
CCNC(=O)[C@@H](NC(=O)Cc1ccccc1)[C@@H]1N[C@@H](C(=O)NCCNC(=O)[C@@H]2N[C@@H]([C@H](NC(=O)Cc3ccccc3)C(=O)NCC)SC2(C)C)C(C)(C)S1,MIC50,434 strains,0.25 µg/mL
CC[C@H]1OC(=O)[C@H](C)C(=O)[C@H](C)[C@@H](O[C@@H]2O[C@H](C)C[C@H](N(C)C)[C@H]2O)[C@](C)(OC)C[C@@H](C)C(=O)[C@H](C)[C@H]2N(CCCCn3cnc(-c4cccnc4)c3)C(=O)O[C@]12C,MIC90,25 strains,>64 µg/mL
CC(=O)NC[C@H]1CN(c2ccc(-c3cc(CO)on3)c(F)c2)C(=O)O1,MIC,UC 30063,8 µg/mL
CC[C@H]1OC(=O)C[C@@H](O)[C@H](C)[C@@H](O[C@@H]2O[C@H](C)[C@@H](O)[C@H](N(C)C)[C@H]2O)C(C=O)C[C@@H](C)C(=O)/C=C/C(C)=C/[C@@H]1COC(=O)Nc1ccc(F)c(F)c1,MIC,33929 (ampicillin-resistant),1 µg/mL
CC[C@H]1OC(=O)[C@H](C)[C@@H](O[C@H]2C[C@@](C)(OC)[C@@H](O)[C@H](C)O2)[C@H](C)[C@@H](O[C@@H]2O[C@H](C)C[C@H](N(C)C)[C@H]2O)[C@](C)(O)C[C@@H](C)/C(=N\OCOCCOC)[C@H](C)[C@@H](O)[C@]1(C)O,MIC90,434 strains,16 µg/mL
CC[C@H]1OC(=O)[C@H](C)C(=O)[C@H](C)[C@@H](O[C@@H]2O[C@H](C)C[C@H](N(C)C)[C@H]2O)[C@](C)(OC)C[C@@H](C)C(=O)[C@H](C)[C@H]2N(CCCCn3cnc(-c4cccnc4)c3)C(=O)O[C@]12C,MIC50,25 strains,1 µg/mL
CC[C@H]1OC(=O)C[C@@H](O)[C@H](C)[C@@H](O[C@@H]2O[C@H](C)[C@@H](O)[C@H](N(C)C)[C@H]2O)C(C=O)C[C@@H](C)C(=O)/C=C/C(C)=C/[C@@H]1COC(=O)NCCc1ccccc1,MIC,33929 (ampicillin-resistant),1 µg/mL

2 of the rows above, restated:

smiles,measure,strain,result
CC[C@H]1OC(=O)[C@H](C)[C@@H](O[C@H]2C[C@@](C)(OC)[C@@H](O)[C@H](C)O2)[C@H](C)[C@@H](O[C@@H]2O[C@H](C)C[C@H](N(C)C)[C@H]2O)[C@](C)(O)C[C@@H](C)/C(=N\OCOCCOC)[C@H](C)[C@@H](O)[C@]1(C)O,MIC90,434 strains,16 µg/mL
CCNC(=O)[C@@H](NC(=O)Cc1ccccc1)[C@@H]1N[C@@H](C(=O)NCCNC(=O)[C@@H]2N[C@@H]([C@H](NC(=O)Cc3ccccc3)C(=O)NCC)SC2(C)C)C(C)(C)S1,MIC50,434 strains,0.25 µg/mL